Anti-infective test results gathered from many reports (values: NIAID ChemDB through PubChem).

Shared fields: cytotoxicity tests; cells: H9; endpoint: CC50

An empty or dashed field is not shown.

CC(C)(O[C@@H]1O[C@H](CO)[C@@H](O)[C@H](O)[C@H]1O)[C@H]1Cc2cc3ccc(=O)oc3cc2O1 ; result: >122.5 µM
COc1ccc2c(c1)N(C(=O)OC(C)C)[C@@H](CSC)C(=S)N2 ; result: >290 µM
O=c1cc(-c2ccccc2)sc2ccc(O)cc12 ; result: 40 µg/mL
Cc1ccc(C(=O)OC[C@H]2O[C@H](n3cc(-c4sccc4C)c(=O)[nH]c3=O)C[C@@H]2OC(=O)c2ccc(C)cc2)cc1 ; result: <10 µg/mL
O=C(/C=C/c1ccc(O)cc1)OC[C@H]1O[C@@H](Oc2c(-c3ccc(O)cc3)oc3cc(O)cc(O)c3c2=O)[C@H](O)[C@@H](O)[C@@H]1O ; result: 80 µg/mL
CC(C)(O)CCC(=O)[C@](C)(O)C1[C@H](O)C(=O)[C@@]2(C)[C@@H]3CC=C4[C@@H](C[C@H](O)[C@@H](O)C4(C)C)[C@]3(C)C(=O)C[C@]12C ; result: 38 µg/mL
Nc1nc2c(ncn2[C@H]2CC[C@@H](CO)O2)c(=O)[nH]1 ; result: 400 µM
Cc1cn([C@H]2C[C@H](N=[N+]=[N-])[C@@H](CO)O2)c(=O)[nH]c1=O ; result: 60 µM
CC(C)[C@H](NC(=O)OCc1ccccc1)C(=O)NC(Cc1ccccc1)C(O)C(Cc1ccccc1)NC(=O)OC(C)(C)C ; method: trypan blue ; result: 20 µM
Cc1cn([C@H]2C[C@H](N=[N+]=[N-])[C@@H](CO)O2)c(=O)[nH]c1=O ; result: 1.9 µM
Nc1nc2c(ncn2[C@H]2C=C[C@@H](CO)C2)c(=O)o1 ; result: >500 µg/mL
CC(C)c1ccccc1SC1=C(O)CC(CCc2ccccc2)(c2ccccc2)OC1=O ; result: 76 µM
Cc1cc(=O)oc2c3c(ccc12)OC(C)(C)[C@H](OC(=O)C12CCC(C)(C(=O)O1)C2(C)C)[C@@H]3OC(=O)C12CCC(C)(C(=O)O1)C2(C)C ; method: cell count ; result: >38.9 µM
Nc1ccn([C@@H]2CO[C@H](CO)S2)c(=O)n1 ; result: >500 µM
CCCCCCc1ccsc1-c1cn([C@H]2C[C@H](O)[C@@H](CO)O2)c(=O)[nH]c1=O ; result: >10 µg/mL
CCC1(CC)Oc2ccc3c(C)cc(=O)oc3c2[C@@H](OC(=O)C23CCC(C)(C(=O)O2)C3(C)C)[C@H]1OC(=O)C12CCC(C)(C(=O)O1)C2(C)C ; result: >37.6 µM
Cc1cn([C@H]2C[C@H](N=[N+]=[N-])[C@@H](CO)O2)c(=O)[nH]c1=O ; result: 1875 µM
Cc1cn([C@H]2C[C@H](N=[N+]=[N-])[C@@H](CO)O2)c(=O)[nH]c1=O ; method: turbidity / cell count ; result: 1870 µM
Nc1cccc2sc(-c3ccccc3)cc(=O)c12 ; result: 50 µg/mL
O=C(O)C(=O)/C=C(\O)c1cc(/C(O)=C/C(=O)C(=O)O)c2ccccc2n1 ; method: MTT ; result: >25 µM
Cc1cn([C@H]2C[C@H](N=[N+]=[N-])[C@@H](CO)O2)c(=O)[nH]c1=O ; result: 500 µg/mL
Nc1ncnc2c1ncn2CCOCP(=O)(O)O ; result: 51 µM
Cc1ccc(C(=O)OC[C@H]2O[C@@H](n3cc(-c4ccoc4)c(N)nc3=O)C[C@@H]2OC(=O)c2ccc(C)cc2)cc1 ; result: >10 µg/mL
CC(C)(O)[C@H]1Cc2cc3ccc(=O)oc3cc2O1 ; result: >203.9 µM
Cc1cc(=S)oc2c3c(ccc12)OC(C)(C)[C@H](OC(=O)C12CCC(C)(C(=O)O1)C2(C)C)[C@@H]3OC(=O)C12CCC(C)(C(=O)O1)C2(C)C ; result: >153 µM
CC(C)[C@@H](NC(=O)C[C@@H]1O[C@@H]1[C@H](Cc1ccccc1)NC(=O)[C@@H](NC(=O)COc1cccc2cnccc12)C(C)(C)S(C)(=O)=O)c1ccccc1 ; result: >100 µM
CC(C)[C@H](NC(=O)OCc1ccccc1)C(=O)N[C@@H](CSC(C)(C)C)[C@@H](O)[C@H](O)[C@H](CSC(C)(C)C)NC(=O)[C@@H](NC(=O)OCc1ccccc1)C(C)C ; method: trypan blue ; result: 20 µM
Cc1ccc(C(=O)OC[C@H]2O[C@H](n3cc(-c4ccc(-c5ccccc5)s4)c(N)nc3=O)C[C@@H]2OC(=O)c2ccc(C)cc2)cc1 ; result: <10 µg/mL
C/C=C(/C)C(=O)O[C@@H]1c2c(ccc3ccc(=O)oc23)OC(C)(C)[C@@H]1OC(C)=O ; result: 20.7 µM
Cc1cn([C@H]2C[C@H](N=[N+]=[N-])[C@@H](CO)O2)c(=O)[nH]c1=O ; result: 60.4 µM
CC1(C)Oc2ccc3ccc(=O)oc3c2[C@@H](OC(=O)C23CCC(C)(C(=O)O2)C3(C)C)[C@H]1OC(=O)C12CCC(C)(C(=O)O1)C2(C)C ; result: 54.7 µM
COc1c2ccoc2cc2oc(=O)ccc12 ; result: 24.8 µg/mL
CC(=O)OC[C@H]1O[C@@H](OC(C)(C)[C@H]2Cc3cc4ccc(=O)oc4cc3O2)[C@H](OC(C)=O)[C@@H](OC(C)=O)[C@@H]1OC(C)=O ; result: >86.8 µM
Nc1nc(=O)n([C@H]2CO[C@@H](CO)S2)cc1F ; result: >500 µM
CC(C)(O)CCC(=O)[C@](C)(O)C1[C@H](O)C[C@@]2(C)[C@@H]3CC=C4[C@@H](C[C@H](O)[C@@H](O)C4(C)C)[C@]3(C)C(=O)C[C@]12C ; result: 9.3 µg/mL
O=c1ccc2cc(O)c(O)cc2o1 ; result: 28.11 µg/mL
Nc1ccn([C@H]2CC[C@@H](CO)O2)c(=O)n1 ; result: 55.1 µM
Nc1nc2c(ncn2[C@H]2CC[C@@H](CO)C2)c(=O)o1 ; result: >500 µg/mL
Nc1nc(N)c2ncn(C[C@@H](CO)OCP(=O)(O)O)c2n1 ; result: >100 µM
CCCc1cc(=S)oc2c3c(ccc12)OC(C)(C)[C@H](OC(=O)C12CCC(C)(C(=O)O1)C2(C)C)[C@@H]3OC(=O)C12CCC(C)(C(=O)O1)C2(C)C ; result: >148 µM
CC(C)[C@H](NC(=O)N(C)Cc1ccccn1)C(=O)N[C@@H](Cc1ccccc1)[C@H](O)[C@H](O)[C@H](Cc1ccccc1)NC(=O)[C@@H](NC(=O)N(C)Cc1ccccn1)C(C)C ; result: >100 µM
CC(C)[C@H](NC(=O)OCc1ccncc1)C(=O)N[C@@H](Cc1ccccc1)[C@@H](O)[C@H](O)[C@H](Cc1ccccc1)NC(=O)[C@@H](NC(=O)OCc1ccncc1)C(C)C ; method: trypan blue ; result: >100 µM
CC(C)=CCOc1c2ccoc2cc2oc(=O)ccc12 ; result: >185.2 µM
Cc1cn([C@H]2C[C@H](N=[N+]=[N-])[C@@H](CO)O2)c(=O)[nH]c1=O ; result: >0.5 µM
O=c1cc(-c2ccccc2)[nH]c2c(S)cccc12 ; result: 35 µg/mL
C[C@]12CC[C@H]3[C@@H](CC=C4NC(=O)CC[C@@]43C)[C@@H]1CC[C@@H]2C(=O)O ; result: 14.1 µM
O=C(/C=C/c1ccc(O)c2c1[C@H](C(=O)O)[C@@H](c1ccc(O)c(O)c1)O2)O[C@H](Cc1ccc(O)c(O)c1)C(=O)O ; result: >300 µM
Nc1nc(=O)n([C@@H]2C[C@H](O)[C@@H](CO)O2)cc1-c1ccccc1 ; result: <10 µg/mL
Nc1nc2c(ncn2[C@H]2C[C@H](O)[C@@H](CO)O2)c(=O)o1 ; result: >500 µg/mL
CC(C)Nc1cccnc1N1CCN(C(=O)c2cc3cc(NS(C)(=O)=O)ccc3[nH]2)CC1 ; result: >100 µM
C[C@]12CC[C@H]3[C@@H](CC=C4NC(=O)CC[C@@]43C)[C@@H]1CC[C@@H]2C(=O)Nc1ccc([N+](=O)[O-])c(C(F)(F)F)c1 ; result: 4.8 µM
Nc1nc(=O)n([C@H]2C[C@H](O)[C@@H](CO)O2)cc1-c1ccccc1 ; result: <10 µg/mL
CCc1cc(NCc2nc3c(C)ccc(C)c3o2)c(=O)[nH]c1C ; result: >60 µM
Nc1nc2c(ncn2[C@@H]2O[C@H](CO)[C@@H](O)[C@H]2O)c(=O)o1 ; method: MTT ; result: >100 µg/mL
CC(C)[C@H](NC(=O)OCc1cccnc1)C(=O)N[C@@H](Cc1ccccc1)[C@@H](O)[C@H](O)[C@H](Cc1ccccc1)NC(=O)[C@@H](NC(=O)OCc1cccnc1)C(C)C ; method: trypan blue ; result: >180 µM
CCC1(C)Oc2ccc3c(C)cc(=O)oc3c2[C@@H](OC(=O)C23CCC(C)(C(=O)O2)C3(C)C)[C@H]1OC(=O)C12CCC(C)(C(=O)O1)C2(C)C ; result: >38.4 µM

A second listing of 5 rows from above:

| SMILES | method | result |
|---|---|---|
| Cc1cn([C@H]2C[C@H](N=[N+]=[N-])[C@@H](CO)O2)c(=O)[nH]c1=O | - | 60 µM |
| Nc1nc2c(ncn2[C@H]2C[C@H](O)[C@@H](CO)O2)c(=O)o1 | - | >500 µg/mL |
| Cc1cc(=O)oc2c3c(ccc12)OC(C)(C)[C@H](OC(=O)C12CCC(C)(C(=O)O1)C2(C)C)[C@@H]3OC(=O)C12CCC(C)(C(=O)O1)C2(C)C | cell count | >38.9 µM |
| CCCCCCc1ccsc1-c1cn([C@H]2C[C@H](O)[C@@H](CO)O2)c(=O)[nH]c1=O | - | >10 µg/mL |
| CC1(C)Oc2ccc3ccc(=O)oc3c2[C@@H](OC(=O)C23CCC(C)(C(=O)O2)C3(C)C)[C@H]1OC(=O)C12CCC(C)(C(=O)O1)C2(C)C | - | 54.7 µM |

CCn is the concentration with n% toxicity to the cells. Neighbouring rows are from separate reports.